Results of unrelated studies side by side (data: NIAID ChemDB).

All rows: tests in culture; organism: Human cytomegalovirus; endpoint: EC50

Neighbouring rows are from separate reports. ECn is the concentration giving n% inhibition of infection, replication or growth. Blank or dashed fields: not listed here.

compound,method,strain or isolate,cells,value
Nc1ccn(C[C@@H](CO)OCP(=O)(O)O)c(=O)n1,plaque count,AD169,MRC-5,0.5 µM
Cc1ccc(C)c(Cn2c(=O)ccn(CC#N)c2=O)c1,,AD169,,>186 µM
C=C1CN(S(=O)(=O)c2ccc(C)cc2)CCCN(Cc2ccccc2)CCCN(S(=O)(=O)c2ccc(C)cc2)C1,,AD169,,30 µg/mL
CC1CNCCN1S(=O)(=O)c1cccc2cnccc12,plaque count,A6245,HEF,22.5 µM
Cc1cc(C)nc(Cn2c(=O)ccn(Cc3ccccc3)c2=O)c1,,AD169,,20 µM
O=C(O)C[C@H](NCCN[C@@H](CC(=O)O)C(=O)O)C(=O)O,plaque count,Ganciclovir- and HPMPC-resistant,HEL,11.7 µg/mL
CC(C)Nc1nc2cc(Cl)c(Cl)cc2n1[C@H]1O[C@@H](CO)[C@H](O)[C@@H]1O,plaque count,AD169,MRC-5,0.41 µM
C[C@@]12COCO[C@@H]1CC[C@@]1(C)[C@H]2CC[C@H]2C[C@@H]3CC21CCC3=O,plaque count,,HFF,>500 µM
C[C@@H]1C[C@@H](n2cnc3c(N)ncnc32)[C@H](O)[C@@H]1O,plaque count,DAVIS (20 PFU),HEL,25 µg/mL
C[C@]12CCC3OC[C@@]3(C)[C@@H]1CC[C@H]1C[C@@H]3CC12CCC3=O,plaque count,,HFF,>500 µM
Cc1ccc(S(=O)(=O)NC(N)=NCCC[C@H](NC(=O)OCc2cc(C)ccc2C)C(=O)N[C@H](C(=O)NC(C=O)CC(C)C)C(C)C)cc1,,,,0.007 µM
C=C1CCC23C[C@H]1C[C@@H]2CC[C@H]1[C@](C)(CO)[C@H](O)CC[C@@]13C,plaque count,,,1.4 µM
Nc1nccc2c1ncn2C(C=O)OC(C=O)CO,plaque count,AD-169 (20 PFU),HEL,1.25 µg/mL
O=C(NCc1ccc(Cl)cc1)c1c[nH]c2c(F)cc(CCCCO)cc2c1=O,,,,0.14 µM
Nc1ncnc2c1ncn2[C@@H]1C[C@H](CO)[C@@H](O)[C@H]1O,plaque count,AD-169 (20 PFU),HEL,>100 µg/mL
Cc1cc(C)c(Cn2c(=O)ccn(CC#N)c2=O)c(C)c1,,AD169,,102 µM
CC1(C)OC[C@]2(C)[C@@H](CC[C@@]3(C)[C@H]2CC[C@H]2C[C@@H]4CC23CCC4=O)O1,plaque count,,HFF,>500 µM
Nc1nc2c(ncn2COC(CO)CO)c(=O)[nH]1,plaque count,Isolate 6,HEF,42.7 µM
Nc1ccn(C[C@@H](CO)OCP(=O)(O)O)c(=O)n1,plaque count,LY9990 (ganciclovir-resistant),HEL,0.4 µg/mL
Cc1cc(C)cc(Cn2c(=S)ccn(Cc3c(F)cccc3F)c2=O)c1,,AD169,,>13 µM
NC(=O)c1c(Cl)c(-c2cccnc2)n2c1C(O)CCC2,plaque count,DAVIS,MRC-5,0.015 µM
N#CCn1ccc(=O)n(Cc2c(F)cccc2F)c1=O,,AD169,,>180 µM
O=C(NCCc1c[nH]c2ccccc12)C1=Cc2ccncc2CC1,plaque count,AD169,MRC-5,1 µM
Nc1ncnc2c1ncn2[C@@H]1C=C(CO)[C@@H](O)[C@H]1O,plaque count,DAVIS (20 PFU),HEL,0.09 µg/mL
Cc1cc(Cn2c(=O)ccn(Cc3c(F)cccc3F)c2=O)cc(C)n1,,AD169,,5.9 µM
Nc1ncnc2c1ncn2[C@@H]1C=C[C@@H](O)[C@H]1O,plaque count,AD-169 (20 PFU),HEL,2.5 µg/mL
C#CCn1ccc(=O)n(Cc2cc(C)cc(C)c2)c1=O,,AD169,,>75 µM
OC[C@@H]1O[C@@H](n2c(Br)nc3ccccc32)[C@H](O)[C@@H]1O,,AD169,,0.8 µM
Nc1nc2c(ncn2COC(CO)CO)c(=O)[nH]1,plaque count,Ganciclovir- and HPMPC-resistant,HEL,11.7 µg/mL
O=c1c(-c2ccc(O)cc2)coc2cc(O)cc(O)c12,plaque count,Isolate 6,HEF,26.7 µM
OC[C@H]1O[C@@H](n2c(Cl)nc3cc(Cl)c(Cl)cc32)[C@@H](F)[C@@H]1O,,,,13 µM
Cc1cc(C)cc(Cn2c(=O)ccn(Cc3c(F)cccc3F)c2=O)c1,,AD169,,>42 µM

The last 2 rows once more:

compound | method | strain or isolate | cells | value
OC[C@H]1O[C@@H](n2c(Cl)nc3cc(Cl)c(Cl)cc32)[C@@H](F)[C@@H]1O |  |  |  | 13 µM
Cc1cc(C)cc(Cn2c(=O)ccn(Cc3c(F)cccc3F)c2=O)c1 |  | AD169 |  | >42 µM